From patent US20090221468

Molecular target: T1, GST-HsORC2 (origin recognition complex subunit 2) (Homo sapiens) (UniProt Q13416)
T1 sequence (looked up, limits assumed): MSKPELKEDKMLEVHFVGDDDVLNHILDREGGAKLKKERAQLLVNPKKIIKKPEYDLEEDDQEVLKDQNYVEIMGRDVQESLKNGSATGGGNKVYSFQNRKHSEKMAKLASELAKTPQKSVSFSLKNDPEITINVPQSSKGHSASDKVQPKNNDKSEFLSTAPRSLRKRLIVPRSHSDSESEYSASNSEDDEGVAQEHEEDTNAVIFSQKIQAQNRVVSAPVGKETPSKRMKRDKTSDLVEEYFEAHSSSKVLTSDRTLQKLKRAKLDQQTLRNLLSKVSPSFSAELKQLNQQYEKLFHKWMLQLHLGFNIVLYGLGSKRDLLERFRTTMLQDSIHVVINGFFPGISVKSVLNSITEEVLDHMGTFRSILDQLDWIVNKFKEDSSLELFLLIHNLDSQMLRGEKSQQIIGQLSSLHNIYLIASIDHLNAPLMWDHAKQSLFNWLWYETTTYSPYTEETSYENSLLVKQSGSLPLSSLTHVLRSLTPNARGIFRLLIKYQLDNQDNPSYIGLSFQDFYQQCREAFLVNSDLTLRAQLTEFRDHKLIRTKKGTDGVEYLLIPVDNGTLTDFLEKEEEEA
Assay: EMSA
Details: 5 mM MgCl2, 1 mM ATP, 70 mM KCl, poly(dI/dC), 25 C; supershift with anti-ORC2; specific cold competitor abolishes; purified recombinant protein; protein details: GST fusion, expressed in E. coli; label: 32P

“AAAACTTTAAA (double strand) [ACS probe (11 bp ACS-like site plus 22 bp upstream)]”: binds.

The exact form of at least one protein or probe is not confirmed. Where a protein sequence is shown, tags need not be part of it.
